Measured values taken from patent publication US10206902B2, “Mono- or di-substituted indoles as dengue viral replication inhibitors” (priority 2014, dated 2019).

Key:
Format in all cases: cell-based, Dengue virus
[1] = tested on: DENV-3 strain H87 prototype; assay: Tetravalent RT-qPCR assay Protocol B, serotype 3; settings: serotype 3 H87
Experimental: (§1) Vero cells (4×10^4) were seeded in 96-well plates. […] Following a 2 hour incubation period, the cell monolayer was washed 3 times with assay medium to remove residual, non-adsorbed virus and cultures were further incubated for either 4 days (DENV-2 NGC-Tongalike) or 7 days (DENV-1 Djibouti strain D1/H/IMTSSA/98/606, DENV-3 strain H87 prototype, DENV-4 strain H241′) in the presence of the inhibitor. Supernatant was harvested and viral RNA load was determined by real-time quantitative RT-PCR. The 50% effective concentration (EC50), which is defined as the compound concentration that is required to inhibit viral RNA replication by 50%, was determined using logarithmic interpolation (Tables 7 and 8). RNA was isolated from 100 μL supernatant with the NucleoSpin 96 Virus kit (Filter Service, Duren, Germany) as described by the manufacturer. The sequences of the TaqMan primers (DENV-For, DENV-Rev; Table 5) and TaqMan probes (DENV-Probe Table 5) were selected from non-structural gene 3 (NS3) or NS5, of the respective flaviviruses using Primer Express software (version 2.0; Applied Biosystems, Lennik, Belgium). The TaqMan probe was fluorescently labelled with 6-carboxyfluorescein (FAM) at the 5′ end as the reporter dye, and with minor groove binder (MGB) at the 3′ end as the quencher (Table 5). One-step, quantitative RT-PCR was performed in a total volume of 25 μL, containing 13.9375 μL H2O, 6.25 μL master mix (Eurogentec, Seraing, Belgium), 0.375 μL forward primer, 0.375 μL reverse primer, 1 μL probe, 0.0625 μL reverse transcriptase (Eurogentec) and 3 μL sample. RT-PCR was performed using the ABI 7500 Fast Real-Time PCR System (Applied Biosystems, Branchburg, N.J., USA) using the following conditions: 30 min at 48° C. and 10 min at 95° C., followed by 40 cycles of 15 s at 95° C. and 1 min at 60° C. The data was analyzed using the ABI PRISM 7500 SDS software (version 1.3.1; Applied Biosystems). For absolute quantification, standard curves were generated using 10-fold dilutions of template preparations of known concentrations.

[2] = tested on: DENV-2 NGC-Tongalike; assay: Tetravalent RT-qPCR assay Protocol B, serotype 2; settings: serotype 2 NGC-Tongalike
Experimental: as §1

[3] = tested on: DENV-2 16681 strain; assay: DENV-2 antiviral assay (eGFP-labelled virus in Vero cells); settings: SI=CC50/EC50, DENV-2 antiviral assay
Experimental: The antiviral activity of all the compounds of the invention was tested against DENV-2 16681 strain which was labeled with enhanced green fluorescent protein (eGPF). The culture medium consists of minimal essential medium supplemented with 2% of heat-inactivated fetal calf serum, 0.04% gentamycin (50 mg/mL) and 2 mM of L-glutamine. Vero cells, obtained from ECACC, were suspended in culture medium and 25 μL was added to 384-well plates (2500 cells/well), which already contain the antiviral compounds. Typically, these plates contain a 4-fold serial dilution of 9 dilution steps of the test compound at 200 times the final concentration in 100% DMSO (200 nL). In addition, each compound concentration is tested in quadruplicate (final concentration range: 25 μM-0.00038 μM). Finally, each plate contains wells which are assigned as virus controls (containing cells and virus in the absence of compound), cell controls (containing cells in the absence of virus and compound) and medium controls (containing medium in the absence of cells, virus and compounds). To the wells assigned as medium control, 25 μL of culture medium was added instead of Vero cells. Once the cells were added to the plates, the plates were incubated for 30 minutes at room temperature to allow the cells to distribute evenly within the wells. Next, the plates were incubated in a fully humidified incubator (37° C., 5% CO2) until the next day. Then, DENV-2 strain 16681, labeled with eGFP, was added at a multiplicity of infection (MOI) of 0.5. Therefore, 15 μL of virus suspension was added to all the wells containing test compound and to the wells assigned as virus control. In parallel, 15 μL of culture medium was added to the medium and cell controls. Next, the plates were incubated for 3 days in a fully humidified incubator (37° C., 5% CO2). At the day of the read out, the eGFP fluorescence was measured using an automated fluorescence microscope at 488 nm (blue laser). Using an in-house LIMS system, inhibition dose response curves for each compound were calculated and the half maximal effective concentration (EC50) was determined. Therefore, the percent inhibition (I) for every test concentration is calculated using the following formula: I=100*(ST−SCC)/(SVC−SCC); ST, SCC and SVC are the amount of eGFP signal in the test compound, cell control and virus control wells, respectively. The EC50 represents the concentration of a compound at which the virus replication is inhibited with 50%, as measured by a 50% reduction of the eGFP fluorescent intensity compared to the virus control. The EC50 is calculated using linear interpolation (Table 1).

SMILES | SI [1] | SI [2] | SI [3]
COc1cc(NC(C(=O)c2c[nH]c3cc(F)ccc23)c2ccc(F)cc2OC)cc(OCCO)c1 (single isomer, unassigned) [Compound 1A, 1-(6-fluoro-1H-indol-3-yl)-2-(4-fluoro-2-methoxyphenyl)-2-((3-(2-hydroxyethoxy)-5-methoxyphenyl)amino)ethanone] | 207 | 11200 | 2100
COc1cc(NC(C(=O)c2c[nH]c3c(C)c(F)ccc23)c2ccc(F)cc2OC)cc(OCCO)c1 (single isomer, unassigned) [Compound 2B, 2-(4-fluoro-2-methoxyphenyl)-1-(6-fluoro-7-methyl-1H-indol-3-yl)-2-((3-(2-hydroxyethoxy)-5-methoxyphenyl)amino)ethanone] | 188 | 18500 | 2581
COc1cc(NC(C(=O)c2c[nH]c3c(C)c(Cl)ccc23)c2ccc(F)cc2OC)cc(OCCO)c1 (single isomer, unassigned) [Compound 3A, 1-(6-chloro-7-methyl-1H-indol-3-yl)-2-(4-fluoro-2-methoxyphenyl)-2-((3-(2-hydroxyethoxy)-5-methoxyphenyl)amino)ethanone] | 232 | 46900 | 5120
COc1cc(NC(C(=O)c2c[nH]c3cc(Cl)ccc23)c2ccc(F)cc2OC)cc(OCCO)c1 (single isomer, unassigned) [Compound 4A, 1-(6-chloro-1H-indol-3-yl)-2-(4-fluoro-2-methoxyphenyl)-2-((3-(2-hydroxyethoxy)-5-methoxyphenyl)amino)ethanone] | 443 | 109414 | 3698
COc1cc(NC(C(=O)c2c[nH]c3c(F)c(F)ccc23)c2ccc(F)cc2OC)cc(OCCO)c1 (single isomer, unassigned) [Compound 5B, 1-(6,7-difluoro-1H-indol-3-yl)-2-(4-fluoro-2-methoxyphenyl)-2-((3-(2-hydroxyethoxy)-5-methoxyphenyl)amino)ethanone] | 212 | 30000 | 2673
COc1cc(NC(C(=O)c2c[nH]c3cc(OC)c(C)cc23)c2ccc(F)cc2OC)cc(OCCO)c1 (single isomer, unassigned) [Compound 6A, 2-(4-fluoro-2-methoxyphenyl)-2-((3-(2-hydroxyethoxy)-5-methoxyphenyl)amino)-1-(6-methoxy-5-methyl-1H-indol-3-yl)ethanone] | 484 | 39200 | 2968
COc1cc(NC(C(=O)c2c[nH]c3cc(OC)c(F)cc23)c2ccc(F)cc2OC)cc(OCCO)c1 (single isomer, unassigned) [Compound 7A, 2-(4-fluoro-2-methoxyphenyl)-1-(5-fluoro-6-methoxy-1H-indol-3-yl)-2-((3-(2-hydroxyethoxy)-5-methoxyphenyl)amino)ethanone] | 339 | 9980 | 1864
COc1cc(NC(C(=O)c2c[nH]c3c(Cl)c(OC)ccc23)c2ccc(F)cc2OC)cc(OCCO)c1 (single isomer, unassigned) [Compound 8A, 1-(7-chloro-6-methoxy-1H-indol-3-yl)-2-(4-fluoro-2-methoxyphenyl)-2-((3-(2-hydroxyethoxy)-5-methoxyphenyl)amino)ethanone] | 324 |  | 10020
COc1cc(NC(C(=O)c2c[nH]c3c(C)cc(F)cc23)c2ccc(F)cc2OC)cc(OCCO)c1 (single isomer, unassigned) [Compound 9B, 2-(4-fluoro-2-methoxyphenyl)-1-(5-fluoro-7-methyl-1H-indol-3-yl)-2-((3-(2-hydroxyethoxy)-5-methoxyphenyl)amino)ethanone] | 109 | 17500 | 1575
